Assay results reported in PubChem BioAssay AID449762 (Southern Research Specialized Biocontainment Screening …, 2010).
The other results are listed elsewhere or left out. Records with an inconclusive call do not appear. Calls of active or inactive are those of the source. No stated cut-off is given here; in the data, inconclusive means inhibition above about 70% without an active follow-up result; inactive means below that.

Assay: M. tuberculosis growth inhibition, HTS (AID 449762);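 further: bacterial growth assessed after seven days of incubation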
Conditions: M. tuberculosis H37Rv growth inhibition, 7H9 media; at 25 µM; stronger effect = higher value

Row | Structure (SMILES) | inhibition
1 | COc1cc(OC)cc(C(=O)NCC2(N3CCCCC3)CCCCC2)c1 | inactive: 1.66%
2 | Cc1ccc(C(=O)NCC2(N3CCCCC3)CCCCC2)o1 | inactive: -6.34%
3 | Fc1ccccc1NC1CCN(Cc2ccccc2)CC1 | inactive: -5.26%
4 | CCN1CCC(Nc2cccc(F)c2)CC1 | inactive: -9.81%
5 | O=C(NCC1(N2CCCCC2)CCCCC1)c1ccco1 | inactive: 10.8%
6 | CN(C)c1ccc(C(=O)NCC2(N3CCCCC3)CCCCC2)cc1 | inactive: -6.13%
7 | CCOc1ncccc1C(=O)NCC1(N2CCOCC2)CCCCC1 | inactive: -5.9%
8 | CN1CCC(Nc2ccc(F)c(Cl)c2)CC1 | inactive: -2.86%
9 | CC(C)(C)OC(=O)N1CCC(Nc2ccccc2)CC1 | inactive: 3.23%
10 | O=C(O)C1(Nc2ccccc2)CCN(Cc2ccccc2)CC1 | inactive: -3.84%
11 | CCCOc1ccc(C(=O)NCC2(N(C)C)CCCCC2)cc1 | inactive: 7.66%
12 | COc1cc(OC)cc(C(=O)NCC2(N3CCOCC3)CCCCC2)c1 | inactive: 2.37%
13 | COc1cccc(C(=O)N(c2cc(C)cc(C)c2)C2CCN(C(=O)OC(C)(C)C)CC2)c1 | inactive: 2.71%
14 | CCC(CO)(C(=O)OC1CN2CCC1CC2)c1ccccc1 (centres undefined) | inactive: -2.77%
15 | CN1CCC(Nc2ccc(Cl)cc2)CC1 | inactive: 3.42%
16 | CCCOc1ccc(C)cc1CN(CCCl)CCCl | inactive: 5.38%
17 | COc1cc(C(=O)NCC2(N3CCOCC3)CCCCC2)cc(OC)c1C | inactive: -9.77%
18 | O=C(NCC1(N2CCOCC2)CCCCC1)c1cc(Br)ccc1Cl | inactive: -5.27%
19 | COc1ccc(C(=O)NCC2(N3CCOCC3)CCCCC2)cc1OC | inactive: 1.03%
20 | CCOC(=O)N1CCC(Nc2ccc(C)cc2)CC1 | inactive: -1.07%
21 | N/C(=N\O)c1c(N)no[n+]1[O-] | inactive: 0.2%
22 | O=C(OC1CN2CCC1CC2)C1c2ccccc2C=Cc2ccccc21 (centres undefined) | inactive: 3.49%

Row | Structure (SMILES) | inhibition
23 | CCc1cc(C(=O)NCC2(N3CCCCC3)CCCCC2)sc1C | inactive: -0.65%
24 | N#Cc1ccc(C(=O)NCC2(N3CCCCC3)CCCCC2)cc1 | inactive: -0.58%
25 | CC(C)(C)OC(=O)N1CCC(N(C(=O)c2ccccc2)c2ccc(Cl)cc2)CC1 | inactive: 9.79%
26 | CN(C)C1(CNC(=O)c2cccc(C#N)c2)CCCCC1 | inactive: 4.57%
27 | c1ccc(CN2CCC(Nc3ccccc3)CC2)cc1 | inactive: -6.29%
28 | CCCN1CCC(Nc2cc(OC)cc(OC)c2)CC1 | inactive: 0.8%
29 | O=C(NCC1(N2CCCCC2)CCCCC1)c1ccc(OC(F)F)cc1 | inactive: 0.86%
30 | CCN1CCC(Nc2ccc(Cl)cc2)CC1 | inactive: -0.85%
31 | N#CC1(Nc2ccccc2)CCN(CCc2ccccc2)CC1 | inactive: -7.64%
32 | O=C(NCC1(N2CCCCC2)CCCCC1)c1cccc([N+](=O)[O-])c1 | inactive: -7.82%
33 | O=C(NCC1(N2CCCCC2)CCCCC1)c1cccc(C(F)(F)F)c1 | inactive: 3.44%
34 | COc1cc(C(=O)NCC2(N3CCCCC3)CCCCC2)ccc1OC(F)F | inactive: -2.58%
35 | O=C(NCC1(N2CCOCC2)CCCCC1)c1cc(=O)[nH]c2ccccc12 | inactive: 2.03%
36 | CN1CCN(CCOC(=O)C(O)(c2ccccc2)c2ccccc2)CC1 | inactive: 1.44%
37 | COc1ccc(NC2CCN(C(=O)OC(C)(C)C)CC2)cc1 | inactive: 1.01%
38 | CC(C)c1ccc(NC2CCN(C(=O)OC(C)(C)C)CC2)cc1 | inactive: 8.67%
39 | COc1ccc(CN(CCCl)CCCl)cc1Cl | inactive: -4.44%
40 | CN(C)c1cccc(C(=O)NCC2(N3CCCCC3)CCCCC2)c1 | inactive: -4.01%
41 | COc1cc(OC)c(C(=O)NCC2(N(C)C)CCCCC2)cc1OC | inactive: 5.31%
42 | O=C(NCC1(N2CCOCC2)CCCCC1)c1cc(F)c(F)cc1Cl | inactive: -5.92%
43 | O=C(NCC1(N2CCCCC2)CCCCC1)c1cncc(Br)c1 | inactive: 4.11%
44 | CN1CCC(Nc2cccc(F)c2)CC1 | inactive: 1.44%

Row | Structure (SMILES) | inhibition
45 | CCCOc1ccc(C(=O)NCC2(N(C)C)CCCCC2)cc1OC | inactive: -6.54%
46 | COc1ccc(C(=O)NCC2(N3CCCCC3)CCCCC2)cc1 | inactive: -3.6%
47 | COc1ccc(C(=O)NCC2(N3CCCCC3)CCCCC2)c(OC)c1OC | inactive: -4.35%
48 | CC(C)(C)OC(=O)N1CCC(N(C(=O)c2ccccc2)c2ccc(F)cc2)CC1 | inactive: 7.1%
49 | O=C(NCC1(N2CCCCC2)CCCCC1)c1ccc(=O)[nH]c1 | inactive: -26.4%
50 | O=C(NCC1(N2CCCCC2)CCCCC1)c1cccs1 | inactive: -2.45%
51 | CSc1ccccc1C(=O)NCC1(N2CCCCC2)CCCCC1 | inactive: -1.18%
52 | O=C(NCC1(N2CCCCC2)CCCCC1)c1ccc(Cl)nc1 | inactive: -9.58%
53 | Cc1cc(C)cc(N(C(=O)c2ccccc2)C2CCN(C(=O)OC(C)(C)C)CC2)c1 | inactive: 20.7%
54 | O=C(NCC1(N2CCOCC2)CCCCC1)c1cc2ccccc2o1 | inactive: 1.89%
55 | N#CC1(Nc2ccccc2)CCN(Cc2ccccc2)CC1 | inactive: 2.7%
56 | O=C(NCC1(N2CCCCC2)CCCCC1)c1ccc(Cl)s1 | inactive: 4.38%
57 | COc1ccc(Cl)cc1C(=O)NCC1(N2CCOCC2)CCCCC1 | inactive: 4.74%
58 | CCOC(=O)N1CCC(Nc2ccc(OC)cc2)CC1 | inactive: -0.4%
59 | CCOc1ccc(C)cc1CN(CCCl)CCCl | inactive: -4.63%
60 | O=C(NCC1(N2CCCCC2)CCCCC1)c1ccc(F)cc1 | inactive: 3.03%
61 | CCOC(=O)N1CCC(Nc2ccc(F)cc2)CC1 | inactive: 3.97%
62 | COc1cc(C(=O)NCC2(N(C)C)CCCCC2)ccc1OC(F)F | inactive: 6.18%
63 | CCOC(=O)N1CCC(Nc2cccc(C)c2)CC1 | inactive: -3.65%
64 | Cc1ccc(OCC(C)C)c(CN(CCCl)CCCl)c1 | inactive: 2.39%
